{
  "source": "paper PMC6271935",
  "about": "“Synthesis and Broad-Spectrum Antiviral Activity of Some Novel Benzo-Heterocyclic Amine Compounds” (Molecules, 2014)",
  "key": {"[1]": {"system": "Influenza A/hanfang/359/95", "format": "cell-based"}, "HCV": {"system": "HCV", "assay": "Anti-HCV assay in Huh7.5 cells, intracellular HCV RNA by real time RT-PCR", "format": "cell-based, hepatitis C virus", "conditions": "selectivity index"}, "Cox B3": {"system": "Cox B3", "format": "cell-based, Coxsackie viruses (Cox B3 Nancy strain)", "conditions": "selectivity index, Vero cells"}, "HBV": {"system": "HBV", "assay": "Anti-HBV assay in HepG2.2.15 cells, viral DNA by real time PCR", "format": "cell-based, Hepatitis B virus", "conditions": "selectivity index", "procedure": "The synthesized target compounds were assayed for their broad spectrum antiviral activity towards influenza A, HBV, HCV and Cox B3 virus in vitro. […] The inhibitory activities towards HBV and HCV were tested by real time PCR, and lamivudine (3TC) and teleprevir were used as positive controls, respectively.\nThe anti-HBV activities of test compounds and a positive control drug were tested in HepG2.2.15 cells. The HepG2.2.15 cells were cultured in 96-well plates and treated with the test compounds at 37 °C for 3 days. The medium was removed, and fresh medium containing the test compounds was added for an additional 3 days. The cells were harvested and intracellular DNA was extracted. The inhibition of viral DNA replication in treated cells versus untreated cells was determined by real time PCR."}},
  "data": [
    {"smiles": "C(=C\\c1ccccc1)/CNc1ccc2ncoc2c1", "note": "[2c, (E)-Benzooxazol-6-yl-(3-phenylallyl)-amine]", "values": [
      {"measurement": "SI Influenza A/hanfang/359/95", "setting": "[1]", "value": 11.5},
      {"measurement": "SI HCV", "setting": "HCV", "value": 10.1},
      {"measurement": "SI Cox B3", "setting": "Cox B3", "value": 83.5}
    ]},
    {"smiles": "C(=C\\c1ccccc1)/CNc1ccc2nc[nH]c2c1", "note": "[4a, (E)-(3H-Benzoimidazol-5-yl)-(3-phenyl-allyl)-amine]", "values": [
      {"measurement": "SI Influenza A/hanfang/359/95", "setting": "[1]", "value": 3.0},
      {"measurement": "SI HCV", "setting": "HCV", "value": 14.3},
      {"measurement": "SI Cox B3", "setting": "Cox B3", "value": 4.0}
    ]},
    {"smiles": "Nc1ccn([C@@H]2CS[C@H](CO)O2)c(=O)n1", "note": "[3TC, lamivudine, reference compound]", "values": [
      {"measurement": "SI HBV", "setting": "HBV", "value": ">54.1"}
    ]},
    {"smiles": "Cc1ccc(CNc2ccc3nc[nH]c3c2)o1", "note": "[4b, (3H-Benzoimidazol-5-yl)-(5-methyl-furan-2-ylmethyl)-amine]", "values": [
      {"measurement": "SI Influenza A/hanfang/359/95", "setting": "[1]", "value": 20.5},
      {"measurement": "SI HCV", "setting": "HCV", "value": ">8.2"},
      {"measurement": "SI Cox B3", "setting": "Cox B3", "value": 5.2}
    ]},
    {"smiles": "c1csc(CNc2ccc3ncsc3c2)c1", "note": "[3h, Benzothiazol-6-yl-thiophen-2-ylmethylamine]", "values": [
      {"measurement": "SI Influenza A/hanfang/359/95", "setting": "[1]", "value": 11.9},
      {"measurement": "SI HCV", "setting": "HCV", "value": 3.2},
      {"measurement": "SI Cox B3", "setting": "Cox B3", "value": 6.2}
    ]},
    {"smiles": "c1csc(CNc2ccc3ncoc3c2)c1", "note": "[2d, Benzooxazol-6-yl-thiophen-2-ylmethylamine]", "values": [
      {"measurement": "SI HCV", "setting": "HCV", "value": "<2.0"},
      {"measurement": "SI Cox B3", "setting": "Cox B3", "value": 10.8}
    ]},
    {"smiles": "Cc1ccc(CNc2ccc3ncsc3c2)o1", "note": "[3g, Benzothiazol-6-yl-(5-methylfuran-2-ylmethyl)-amine]", "values": [
      {"measurement": "SI Influenza A/hanfang/359/95", "setting": "[1]", "value": 3.6},
      {"measurement": "SI HBV", "setting": "HBV", "value": 30.3},
      {"measurement": "SI Cox B3", "setting": "Cox B3", "value": 13.0}
    ]},
    {"smiles": "O=[N+]([O-])c1ccc(CNc2ccc3ncoc3c2)cc1", "note": "[2b, Benzooxazol-6-yl-(4-nitrobenzyl)-amine]", "values": [
      {"measurement": "SI Influenza A/hanfang/359/95", "setting": "[1]", "value": 7.0},
      {"measurement": "SI HCV", "setting": "HCV", "value": "<3.0"},
      {"measurement": "SI Cox B3", "setting": "Cox B3", "value": 8.2}
    ]},
    {"smiles": "O=[N+]([O-])c1cccc(CNc2ccc3ncsc3c2)c1", "note": "[3c, Benzothiazol-6-yl-(3-nitrobenzyl)-amine]", "values": [
      {"measurement": "SI Influenza A/hanfang/359/95", "setting": "[1]", "value": 3.6},
      {"measurement": "SI Cox B3", "setting": "Cox B3", "value": 15.6}
    ]},
    {"smiles": "COc1cc(CNc2ccc3ncoc3c2)cc(Br)c1O", "note": "[2a, 4-(Benzooxazol-6-ylaminomethyl)-2-bromo-6-methoxyphenol]", "values": [
      {"measurement": "SI HCV", "setting": "HCV", "value": 2.7},
      {"measurement": "SI Cox B3", "setting": "Cox B3", "value": 15.7}
    ]},
    {"smiles": "c1ncc(CNc2ccc3ncsc3c2)cn1", "note": "[3j, Benzothiazol-6-yl-pyrimidin-5-ylmethyl-amine]", "values": [
      {"measurement": "SI Influenza A/hanfang/359/95", "setting": "[1]", "value": 3.9},
      {"measurement": "SI HCV", "setting": "HCV", "value": "<3.0"},
      {"measurement": "SI Cox B3", "setting": "Cox B3", "value": 15.6}
    ]},
    {"smiles": "C(=C\\c1ccccc1)/CNc1ccc2ncsc2c1", "note": "[3e, (E)-benzothiazol-6-yl-(3-phenyl-allyl)-amine]", "values": [
      {"measurement": "SI Influenza A/hanfang/359/95", "setting": "[1]", "value": 2.8},
      {"measurement": "SI HCV", "setting": "HCV", "value": 4.5},
      {"measurement": "SI Cox B3", "setting": "Cox B3", "value": 17.2}
    ]},
    {"smiles": "CCC[C@H](NC(=O)[C@@H]1[C@H]2CCC[C@H]2CN1C(=O)[C@@H](NC(=O)[C@@H](NC(=O)c1cnccn1)C1CCCCC1)C(C)(C)C)C(=O)C(=O)NC1CC1", "note": "[Telaprevir, telaprevir, reference compound]", "values": [
      {"measurement": "SI HCV", "setting": "HCV", "value": 2920.0}
    ]},
    {"smiles": "Clc1ccc(CNc2ccc3cc[nH]c3c2)cc1", "note": "[1a, (4-Chlorobenzyl)-(1H-indol-6-yl)-amine]", "values": [
      {"measurement": "SI HCV", "setting": "HCV", "value": 11.3},
      {"measurement": "SI HBV", "setting": "HBV", "value": 5.6},
      {"measurement": "SI Cox B3", "setting": "Cox B3", "value": 1.7}
    ]},
    {"smiles": "Cc1ccc(CNc2ccc3cc[nH]c3c2)o1", "note": "[1c, (1H-Indol-6-yl)-(5-methylfuran-2-ylmethyl)-amine]", "values": [
      {"measurement": "SI HCV", "setting": "HCV", "value": 16.8},
      {"measurement": "SI Cox B3", "setting": "Cox B3", "value": 13.0}
    ]},
    {"smiles": "Clc1ccc(CNc2ccc3ncsc3c2)s1", "note": "[3i, Benzothiazol-6-yl-(5-chlorothiophen-2-ylmethyl)-amine]", "values": [
      {"measurement": "SI Influenza A/hanfang/359/95", "setting": "[1]", "value": 8.0},
      {"measurement": "SI HCV", "setting": "HCV", "value": 3.9},
      {"measurement": "SI Cox B3", "setting": "Cox B3", "value": 5.2}
    ]},
    {"smiles": "Cc1ccc(CNc2ccc3cc[nH]c3c2)s1", "note": "[1d, (1H-Indol-6-yl)-(5-methylthiophen-2-ylmethyl)-amine]", "values": [
      {"measurement": "SI Influenza A/hanfang/359/95", "setting": "[1]", "value": 2.2},
      {"measurement": "SI Cox B3", "setting": "Cox B3", "value": 39.1}
    ]},
    {"smiles": "Clc1ccc(CNc2ccc3ncoc3c2)s1", "note": "[2e, Benzooxazol-6-yl-(5-chlorothiophen-2-ylmethyl)-amine]", "values": [
      {"measurement": "SI Influenza A/hanfang/359/95", "setting": "[1]", "value": 8.0},
      {"measurement": "SI HCV", "setting": "HCV", "value": 2.6},
      {"measurement": "SI Cox B3", "setting": "Cox B3", "value": 8.2}
    ]},
    {"smiles": "c1cnc2c(CNc3ccc4ncoc4c3)cccc2c1", "note": "[2g, Benzooxazol-6-yl-quinolin-8-ylmethylamine]", "values": [
      {"measurement": "SI Influenza A/hanfang/359/95", "setting": "[1]", "value": 6.2},
      {"measurement": "SI HCV", "setting": "HCV", "value": 1.9},
      {"measurement": "SI Cox B3", "setting": "Cox B3", "value": 9.0}
    ]},
    {"smiles": "C(=C\\c1ccccc1)/CNc1ccc2cc[nH]c2c1", "note": "[1b, (E)-(1H-Indol-6-yl)-(3-phenylallyl)-amine]", "values": [
      {"measurement": "SI Cox B3", "setting": "Cox B3", "value": 3.0}
    ]},
    {"smiles": "O=[N+]([O-])c1ccc(CNc2ccc3ncsc3c2)cc1", "note": "[3d, Benzothiazol-6-yl-(4-nitrobenzyl)-amine]", "values": [
      {"measurement": "SI Influenza A/hanfang/359/95", "setting": "[1]", "value": 80.8},
      {"measurement": "SI HCV", "setting": "HCV", "value": 6.3},
      {"measurement": "SI Cox B3", "setting": "Cox B3", "value": 99.5}
    ]},
    {"smiles": "CCOC(=O)C1=C[C@@H](OC(CC)CC)[C@H](NC(C)=O)[C@@H](N)C1", "note": "[Oseltamivir, oseltamivir, reference compound]", "values": [
      {"measurement": "SI Influenza A/hanfang/359/95", "setting": "[1]", "value": 212.5}
    ]},
    {"smiles": "COc1cccc(CNc2ccc3ncsc3c2)c1O", "note": "[3b, 2-(Benzothiazol-6-ylaminomethyl)-6-methoxyphenol]", "values": [
      {"measurement": "SI Influenza A/hanfang/359/95", "setting": "[1]", "value": 5.6},
      {"measurement": "SI HCV", "setting": "HCV", "value": 3.3},
      {"measurement": "SI Cox B3", "setting": "Cox B3", "value": 11.9}
    ]},
    {"smiles": "COc1ccccc1/C=C/CNc1ccc2ncsc2c1", "note": "[3f, (E)-benzothiazol-6-yl-[3-(2-methoxy-phenyl)-allyl]-amine]", "values": [
      {"measurement": "SI Influenza A/hanfang/359/95", "setting": "[1]", "value": 5.2},
      {"measurement": "SI HCV", "setting": "HCV", "value": 10.9},
      {"measurement": "SI HBV", "setting": "HBV", "value": 5.7},
      {"measurement": "SI Cox B3", "setting": "Cox B3", "value": 3.9}
    ]},
    {"smiles": "COc1cc(CNc2ccc3ncsc3c2)cc(Br)c1O", "note": "[3a, 4-(Benzothiazol-6-ylaminomethyl)-2-bromo-6-methoxyphenol]", "values": [
      {"measurement": "SI HCV", "setting": "HCV", "value": 2.2},
      {"measurement": "SI Cox B3", "setting": "Cox B3", "value": 2.1}
    ]},
    {"smiles": "c1ncc(CNc2ccc3ncoc3c2)cn1", "note": "[2f, Benzooxazol-6-yl-pyrimidin-5-ylmethyl-amine]", "values": [
      {"measurement": "SI Cox B3", "setting": "Cox B3", "value": 5.2}
    ]}
  ]
}
